Anti-infective test results gathered from many reports (values: NIAID ChemDB through PubChem).

Common to all: whole-cell or culture tests; agent: Rhinovirus; cell line: HeLa; read-out: EC50

ECn is the concentration giving n% inhibition of infection, replication or growth. Neighbouring rows are from separate reports.

compound | strain or isolate | read by | result
COCc1cc(CCCOc2c(Cl)cc(-c3noc(C)n3)cc2Cl)on1 | Serotype 30 | cytopathic effect | 0.015 µg/mL
Cc1cc(OCCCc2ccc(C(F)(F)F)nn2)cc(C)c1-c1noc(C(F)F)n1 | serotypes 3 4 5 9 16 18 38 66 75 67 | cytopathic effect | 0.03 µg/mL
CS(=O)(=O)c1ccc(Cc2ccc(S(C)(=O)=O)cn2)cc1 | TYPE 2 | cytopathic effect | >10 µg/mL
CCOc1ccc(-c2onc(N(CC)CC)c2Cc2c(N(CC)CC)noc2-c2ccc(O)cc2O)c(O)c1 | Serotype 2 | cytopathic effect | >17 µM
CC(C)S(=O)(=O)c1ccc(Oc2ccc(C(=O)c3ccccc3)cc2)nc1 | TYPE 2 | cytopathic effect | >5 µg/mL
Cc1cc(CCCCCOc2c(Cl)cc(C3=NCCO3)cc2Cl)on1 | TYPE 36 | plaque count | 0.007 µg/mL
CS(=O)(=O)c1ccc(Oc2ccc(C(=O)c3ccccc3)cc2)nc1 | TYPE 64 | cytopathic effect | 2.5 µg/mL
CS(=O)(=O)c1ccc(Cc2ccc(Cl)c(Cl)c2)nc1 | TYPE 5 | cytopathic effect | >10 µg/mL
CCN(CC)c1cc(-c2ccc(OC)cc2OC)on1 | Serotype 9 (group B) | cytopathic effect | 43.7 µM
CCS(=O)(=O)c1ccc(Cc2ccc(Cl)c(Cl)c2)nc1 | TYPE 2 | cytopathic effect | 1.3 µg/mL
Cc1cc(-c2noc(C(F)(F)F)n2)cc(C)c1OCCCc1cccnn1 | serotypes 3 4 5 9 16 18 38 66 75 67 | cytopathic effect | 0.071 µg/mL
CS(=O)(=O)c1ccc(NCc2ccc(Cl)c(Cl)c2)nc1 | TYPE 21 | cytopathic effect | 5 µg/mL
CC(=O)c1ccc(CCCOc2cc(C)c(-c3noc(C)n3)c(C)c2)nn1 | serotypes 3 4 5 9 16 18 38 66 75 67 | cytopathic effect | 0.14 µg/mL
CCOc1cc(CCCOc2c(C)cc(-c3noc(C)n3)cc2C)on1 | Serotype 41 | cytopathic effect | 0.153 µg/mL
CCOc1cc(OC)ccc1-c1cc(N(CC)CC)no1 | Serotype 70 (group A) | cytopathic effect | 55.2 µM
CC(=O)c1ccc(CCCOc2c(C)cc(-c3noc(C(F)F)n3)cc2C)nn1 | serotypes 3 4 5 9 16 18 38 66 75 67 | cytopathic effect | 0.07 µg/mL
COc1ccc(-c2cc(N3CCCCC3)no2)c(O)c1 | Serotype 2 | cytopathic effect | >364 µM
COc1ccc(CNc2ccc(S(C)(=O)=O)cn2)cc1OC | TYPE 1A | cytopathic effect | >10 µg/mL
COc1ccc(-c2cc(N3CCCC3)no2)c(O)c1 | Serotype 45 (group A) | cytopathic effect | >384 µM
CS(=O)(=O)c1ccc(Cc2ccccc2)nc1 | TYPE 2 | cytopathic effect | >10 µg/mL
C#CCOc1cc(OC)ccc1-c1cc(N(CC)CC)no1 | Serotype 63 (group B) | cytopathic effect | >40 µM
Cc1nc(-c2cc(C)c(OCCCc3cc(C4CC4)no3)c(C)c2)no1 | Serotype 67 | cytopathic effect | 0.08 µg/mL

Repeating the final 3 entries:

compound | strain or isolate | read by | result
CS(=O)(=O)c1ccc(Cc2ccccc2)nc1 | TYPE 2 | cytopathic effect | >10 µg/mL
C#CCOc1cc(OC)ccc1-c1cc(N(CC)CC)no1 | Serotype 63 (group B) | cytopathic effect | >40 µM
Cc1nc(-c2cc(C)c(OCCCc3cc(C4CC4)no3)c(C)c2)no1 | Serotype 67 | cytopathic effect | 0.08 µg/mL